Anti-infective test results gathered from many reports (values: NIAID ChemDB through PubChem).

Common to all: whole-cell or culture tests

Inhibition is in % at the dose shown (toxicity tests: loss of growth or viability). MIC50, MIC90 and the like: level of inhibition, or share of isolates inhibited. Neighbouring rows are from separate reports.

{"smiles": "COc1cc(O)c2c(O)c(C(=O)c3ccccc3)oc2c1", "read-out": "inhibition", "dose": "25 µM", "organism": "Cryptosporidium parvum", "result": "14%"}
{"smiles": "Cc1[nH]nc2c1C(=O)c1c(O)ccc(O)c1C2=O", "read-out": "inhibition", "dose": "25 µM", "organism": "Cryptosporidium parvum", "result": "<10%"}
{"smiles": "CNC(NC)c1ccc2cc(-n3cc(CCCO)nn3)c(=O)oc2c1", "read-out": "MIC", "method": "broth dilution", "organism": "Cryptococcus gattii", "result": ">750 µg/mL"}
{"smiles": "COc1cc(/C=C/C=C\\c2ccccc2)oc(=O)c1C", "read-out": "inhibition", "dose": "10 µM", "organism": "Cryptosporidium parvum", "result": "0%"}
{"smiles": "CCOC(=O)c1c(C)nc(NCCCCNc2ccnc3cc(Cl)ccc23)nc1-c1ccccc1", "read-out": "MIC99", "strain or isolate": "1913 ER", "organism": "Cryptococcus gattii", "result": "8 µg/mL"}
{"smiles": "CC(=O)OC[C@H]1O[C@@H](O[C@@H]2[C@@H](N=[N+]=[N-])[C@H](O)[C@H](O)[C@H]3OC(C)(C)O[C@H]32)[C@H](OC(C)=O)[C@@H](OC(C)=O)[C@H]1OC(C)=O", "read-out": "inhibition", "dose": "15.6 µg/mL", "strain or isolate": "ATCC 32264", "method": "broth dilution / turbidity", "organism": "Cryptococcus neoformans", "result": "0%"}
{"smiles": "COc1cc(/C=C/C=C\\c2ccccc2OC)oc(=O)c1", "read-out": "inhibition", "dose": "50 µM", "organism": "Cryptosporidium parvum", "result": "19%"}
{"smiles": "CCC(C)CC(C)CCCCCCCCC(=O)N[C@H]1C[C@@H](O)[C@H](NCCN)NC(=O)[C@@H]2[C@@H](O)CCN2C(=O)[C@H]([C@H](O)CCN)NC(=O)[C@H]([C@H](O)[C@@H](O)c2ccc(O)cc2)NC(=O)[C@@H]2C[C@@H](O)CN2C(=O)[C@H]([C@@H](C)O)NC1=O", "read-out": "MIC", "strain or isolate": "CBS 11545", "method": "broth dilution", "organism": "Cryptococcus gattii", "result": "16 µg/mL"}
{"smiles": "Oc1ccccc1N=Cc1cccc(O)c1O", "read-out": "MIC99", "strain or isolate": "VM-MCMMPI", "organism": "Cryptococcus neoformans", "result": "4 µg/mL"}
{"smiles": "NC[C@@H]1O[C@H](O[C@H]2[C@@H](O)[C@H](O[C@@H]3[C@@H](O)[C@H](N)C[C@H](N)[C@H]3O[C@H]3O[C@H](CO)[C@@H](O)[C@H](O)[C@H]3N)O[C@@H]2CO)[C@H](N)[C@@H](O)[C@@H]1O", "read-out": "inhibition", "cell line": "MDBK", "dose": "2 µg/mL", "method": "antigen", "organism": "Cryptosporidium parvum", "result": "79.4%"}
{"smiles": "O=C1COc2cc(O)ccc21", "read-out": "inhibition", "dose": "25 µM", "organism": "Cryptosporidium parvum", "result": "10%"}
{"smiles": "CN[C@H]1CC[C@@H](c2ccc(Cl)c(Cl)c2)c2ccccc21", "read-out": "MIC90", "strain or isolate": "UA 1993", "method": "broth dilution", "organism": "Cryptococcus neoformans", "result": "5 µg/mL"}
{"smiles": "Oc1ccccc1C=Nc1ccccc1O", "read-out": "MIC99", "strain or isolate": "547/OTTI-97-PI-10", "organism": "Cryptococcus gattii", "result": "11.3 µg/mL"}
{"smiles": "COc1cc(/C=C2\\Oc3cc(O)cc(O[C@@H]4O[C@H](CO)[C@@H](O)[C@H](O)[C@H]4O)c3C2=O)cc(OC)c1OC(C)=O", "read-out": "inhibition", "dose": "25 µM", "organism": "Cryptosporidium parvum", "result": "3%"}
{"smiles": "Cn1nc(Cc2ccc(Cl)cc2)c2ccccc2c1=O", "read-out": "MIC80", "strain or isolate": "Clinical isolate (IM 042074)", "method": "broth dilution", "organism": "Cryptococcus neoformans", "result": "7.8 µg/mL"}
{"smiles": "Cn1ncc2c1C(=O)c1c(Cl)ccc(O)c1C2=O", "read-out": "inhibition", "dose": "25 µM", "organism": "Cryptosporidium parvum", "result": "100%"}
{"smiles": "Cc1nc(NCCCCNc2ccnc3cc(Cl)ccc23)nc(-c2ccccc2[N+](=O)[O-])c1C(=O)OC(C)C", "read-out": "MIC99", "strain or isolate": "L24/01", "organism": "Cryptococcus gattii", "result": "8 µg/mL"}
{"smiles": "CCC(C)n1ncn(-c2ccc(N3CCN(c4ccc(OC[C@H]5CO[C@](Cn6cncn6)(c6ccc(Cl)cc6Cl)O5)cc4)CC3)cc2)c1=O", "read-out": "MIC", "strain or isolate": "D", "method": "broth dilution", "organism": "Cryptococcus spp.", "result": "2 µg/mL"}
{"smiles": "CC[C@H]1OC(=O)[C@H](C)[C@@H](O[C@H]2C[C@@](C)(OC)[C@@H](O)[C@H](C)O2)[C@H](C)[C@@H](O[C@@H]2O[C@H](C)C[C@H](N(C)C)[C@H]2O)[C@](C)(O)C[C@@H](C)CN(C)[C@H](C)[C@@H](O)[C@]1(C)O", "read-out": "inhibition", "cell line": "A549", "dose": "2 µg/mL", "organism": "Cryptosporidium parvum", "result": "13%"}
{"smiles": "C[C@@H](c1nc(-c2ccc(C#N)cc2)cs1)[C@](O)(Cn1cncn1)c1cc(F)ccc1F", "read-out": "MIC90", "strain or isolate": "VG IIa", "method": "broth dilution", "organism": "Cryptococcus gattii", "result": "0.063 µg/mL"}
{"smiles": "COc1ccc(/C=C2\\Oc3cc(O)cc(O)c3C2=O)cc1O", "read-out": "inhibition", "dose": "10 µM", "organism": "Cryptosporidium parvum", "result": "7%"}
{"smiles": "CC(=O)Oc1ccccc1C(=O)Nc1ncc([N+](=O)[O-])s1", "read-out": "inhibition", "cell line": "MDBK", "dose": "0.1 µg/mL", "method": "cell count", "organism": "Cryptosporidium parvum", "result": "10.3%"}
{"smiles": "Cn1ncc2c1C(=O)c1c(O)c3c(c(O)c1C2=O)CCCC3", "read-out": "inhibition", "dose": "100 µM", "organism": "Cryptosporidium parvum", "result": "<10%"}
{"smiles": "O=C1/C(=C/c2ccccc2)Oc2cc(O)ccc21", "read-out": "inhibition", "dose": "10 µM", "organism": "Cryptosporidium parvum", "result": "1%"}
{"smiles": "NC[C@@H]1O[C@H](O[C@H]2[C@@H](O)[C@H](O[C@@H]3[C@@H](O)[C@H](N)C[C@H](N)[C@H]3O[C@H]3O[C@H](CO)[C@@H](O)[C@H](O)[C@H]3N)O[C@@H]2CO)[C@H](N)[C@@H](O)[C@@H]1O", "read-out": "inhibition", "cell line": "MDCK", "dose": "100 µg/mL", "strain or isolate": "IOWA", "method": "luminescence", "organism": "Cryptosporidium parvum", "result": "15.2%"}
{"smiles": "O=C(c1ccccc1)c1oc2cc(O)cc(O)c2c1O", "read-out": "inhibition", "dose": "10 µM", "organism": "Cryptosporidium parvum", "result": "10%"}
{"smiles": "NCCCC[C@H](NC(=O)[C@@H](N)CCCCN)C(=O)N[C@@H](CCC(N)=O)C(=O)N[C@@H](CCCN=C(N)N)C(=O)O", "read-out": "inhibition", "dose": "200 µM", "strain or isolate": "ATCC 32264", "organism": "Cryptococcus neoformans", "result": "100%"}
{"smiles": "CO[C@H]1/C=C/O[C@@]2(C)Oc3c(C)c(O)c4c(O)c(c5c(c4c3C2=O)NC2(CCN(CC(C)C)CC2)N=5)=NC(=O)/C(C)=C\\C=C\\[C@H](C)[C@H](O)[C@@H](C)[C@@H](O)[C@@H](C)[C@H](OC(C)=O)[C@@H]1C", "read-out": "inhibition", "cell line": "A549", "dose": "2 µg/mL", "organism": "Cryptosporidium parvum", "result": "11%"}

Repeating the final 3 entries:

{"smiles": "O=C(c1ccccc1)c1oc2cc(O)cc(O)c2c1O", "read-out": "inhibition", "dose": "10 µM", "organism": "Cryptosporidium parvum", "result": "10%"}
{"smiles": "NCCCC[C@H](NC(=O)[C@@H](N)CCCCN)C(=O)N[C@@H](CCC(N)=O)C(=O)N[C@@H](CCCN=C(N)N)C(=O)O", "read-out": "inhibition", "dose": "200 µM", "strain or isolate": "ATCC 32264", "organism": "Cryptococcus neoformans", "result": "100%"}
{"smiles": "CO[C@H]1/C=C/O[C@@]2(C)Oc3c(C)c(O)c4c(O)c(c5c(c4c3C2=O)NC2(CCN(CC(C)C)CC2)N=5)=NC(=O)/C(C)=C\\C=C\\[C@H](C)[C@H](O)[C@@H](C)[C@@H](O)[C@@H](C)[C@H](OC(C)=O)[C@@H]1C", "read-out": "inhibition", "cell line": "A549", "dose": "2 µg/mL", "organism": "Cryptosporidium parvum", "result": "11%"}